Assay results from article PMC8498006 (Advances in Redox Research, 2021).

Biological target: SARS-CoV-2 M^pro (MBP-tagged main protease) (Severe acute respiratory syndrome coronavirus 2, UniProt P0DTD1)
Type: biochemical
Conditions: 0.5 µM enzyme, preincubation 37°C 30 min, 10 µM Dabcyl-[…]-Edans 1 h

Substance: myricitrin
- IC50: 21.7 µM
